Measured values published in PubChem BioAssay AID588549 (Broad Institute, 2011).
The list shows a part of the results, in another mix than the full data. Calls of active or inactive are those of the source. Rule as the data show it: active = inhibition above about 8.5% (passing the limit was not always enough); inconclusive = no clear call, values can overlap the other calls.

What follows are compounds tested on Mycobacterium tuberculosis FadD28 fatty-acid-AMP ligase (assay: inhibitors of FadD28 bisubstrate probe binding, primary screen, biochemical, fluorescence polarization, single point (AID 588549)). Details: at 12.5 µM, stronger effect = higher value.
`O=P1(N(CCCl)CCCl)OCCCS1` (centres undefined) was tested, and the inhibition was inactive: -1.72%.
With `O=C(Nc1cc([As](=O)(O)O)ccc1O)c1ccccc1` the inhibition was inactive: -2.2%.
For `CC(C)(C)C(=O)NC(Sc1ccncn1)C(Cl)(Cl)Cl` (centres undefined), the inhibition was inactive: 0.056%.
In the case of `O=[N+]([O-])c1ncn(CCn2ncnc2[N+](=O)[O-])n1`, the inhibition is reported as inactive: 2.6%.
`O=[N+]([O-])c1cccc(NC2=NCC(CBr)S2)c1` (centres undefined) was tested, and the inhibition was inactive: -1.47%.
With `COC(=O)C1(C)COP(=O)(Nc2ccccc2)OC1` (centres undefined) the inhibition was inactive: -4.18%.
With `O=C(O)CNc1ccc([As](=O)(O)O)cc1` the inhibition was inactive: -3.67%.
In the case of `COc1ccc(C2=NCC(CBr)S2)cc1` (centres undefined), the inhibition is reported as inactive: -2.2%.
With `O=[N+]([O-])c1cccc2n[nH]nc12` the inhibition was inactive: -2.5%.
In the case of `CC(=O)N1C2C3N(C(C)=O)C1C1N(C(C)=O)C(C(N1C(C)=O)N3C(C)=O)N2C(C)=O`, the inhibition is reported as inactive: -2.89%.
For `CCc1nc2c(n1)c1c(non1O)c1c2no[n+]1[O-]`, the inhibition was inactive: -1.94%.
`O=[N+]([O-])c1cc([N+](=O)[O-])c(CCNc2ccccc2)c([N+](=O)[O-])c1` was tested, and the inhibition was inactive: -2.62%.
With `Cc1ccc(NP(=O)(Oc2ccccc2)Oc2ccccc2)nc1` the inhibition was inactive: -0.651%.
`C[N+]1=C2C=CC=CC=C2SC12C([N+](=O)[O-])=CC([N+](=O)[O-])=C[C-]2[N+](=O)[O-]` (centres undefined) was tested, and the inhibition was inactive: 2.95%.
With `Nc1ccc([As](=O)(O)c2ccc(N)cc2)cc1` the inhibition was inactive: -1.95%.
With `CN(C)C(=O)OCCc1n(C)cc[n+]1C` the inhibition was inactive: -2.82%.
For `CC(C)=N/N=C(\N)N[N+](=O)[O-]`, the inhibition was inactive: -2.64%.
With `CC(C)c1nc(Nc2ccccc2)n(P(=O)(N(C)C)N(C)C)n1` the inhibition was inactive: -0.815%.
`c1cc(-c2nn[nH]n2)ccc1-c1nn[nH]n1` was tested, and the inhibition was inactive: -1.41%.
`CC1CCN(C(=O)Oc2c(Cl)cc(Cl)c3cccnc23)CC1` was tested, and the inhibition was inactive: -1.77%.
With `NC(=O)c1cc([N+](=O)[O-])cc([N+](=O)[O-])c1N` the inhibition was inactive: -2.05%.
In the case of `Cc1ccc(N/C(=N/P(=O)(N2CCOCC2)N2CCOCC2)N2CCOCC2)cc1`, the inhibition is reported as inactive: -2.09%.
`CN(C(=O)Cc1ccc(Cl)c(Cl)c1)[C@H]1CCCC[C@H]1N1CCCC1` was tested, and the inhibition was inactive: -4.46%.
For `Cc1ccc(OP(=O)(Nc2nccs2)Oc2ccc(C)cc2)cc1`, the inhibition was inactive: -0.576%.
`COc1ccccc1OP(=O)(Nc1ccc(C)cn1)Oc1ccccc1OC` was tested, and the inhibition was inactive: 0.398%.
For `Clc1ccc(Cl)c(NC2=NCC(CBr)S2)c1` (centres undefined), the inhibition was inactive: -5.63%.
In the case of `CN1CCCC(OC(=O)C(c2ccccc2)c2ccccc2)C1` (centres undefined), the inhibition is reported as inactive: 1.04%.
With `CC(C)CC(=O)NC(Sc1ccc(Cl)cc1)C(Cl)(Cl)Cl` (centres undefined) the inhibition was inactive: -3.04%.
In the case of `Nc1cc(N)c2nonc2c1[N+](=O)[O-]`, the inhibition is reported as inactive: -2.07%.
For `O=C(NC(Sc1ccncn1)C(Cl)(Cl)Cl)c1ccccc1` (centres undefined), the inhibition was inactive: -2.19%.
`Oc1ccccc1CNc1ccccn1` was tested, and the inhibition was inactive: -1.07%.
`O=[N+]([O-])C1C(O)C(O)C([N+](=O)[O-])C(O)C1O` (centres undefined) was tested, and the inhibition was inactive: -0.386%.
For `O=C(O)c1ccccc1[As](=O)(O)O`, the inhibition was inactive: -2.28%.
For `CC(=O)Nc1ccc([As](=O)(O)O)cc1`, the inhibition was inactive: 0.304%.
With `CN(C)P(=O)(N(C)C)n1c(Nc2ccccc2)nnc1-c1ccccc1` the inhibition was inactive: -7.03%.
With `O=P(Nc1nc2ccc(Cl)cc2s1)(c1ccccc1)c1ccccc1` the inhibition was inactive: -1.65%.
For `Cc1ccc(NP(=O)(Oc2ccccc2F)Oc2ccccc2F)nc1`, the inhibition was inactive: -0.955%.
`CN(C(=O)Cc1ccc(Cl)c(Cl)c1)[C@H]1CCCC[C@@H]1N1CCCC1` was tested, and the inhibition was inactive: -1.75%.
For `CCOP(=O)(Nc1ccccc1)OCC`, the inhibition was inactive: 0.432%.
With `Cc1cc(SC(NC(=O)c2ccc(F)cc2)C(Cl)(Cl)Cl)ncn1` (centres undefined) the inhibition was inactive: -1.86%.
In the case of `CCN(N=Nc1nonc1N)c1nonc1N`, the inhibition is reported as inactive: -0.865%.
`Nc1cccc2ccc([As](=O)(O)O)cc12` was tested, and the inhibition was active: 15%.
With `CCNC(=S)/N=C(\N)N[N+](=O)[O-]` the inhibition was inactive: -2.83%.
`O=C(NC1CCS(=O)(=O)C1)NP(=S)(Oc1ccccc1)Oc1ccccc1` (centres undefined) was tested, and the inhibition was inactive: -3.78%.
With `Cc1ccc(NP(=O)(Oc2cccc(C)c2)Oc2cccc(C)c2)nc1` the inhibition was inactive: -0.0565%.
For `c1ccc(-c2nn[nH]n2)c(-c2nn[nH]n2)c1`, the inhibition was inactive: -0.0095%.
With `O=P1(N(CCCl)CCCl)OCCC2CCCCN21` (centres undefined) the inhibition was inactive: -0.56%.
`CC(=O)NC(SC(=S)N(CC(C)C)CC(C)C)C(Cl)(Cl)Cl` (centres undefined) was tested, and the inhibition was inactive: -5.88%.
For `Cc1ccc(OP(=O)(Nc2ccccn2)Oc2ccc(C)cc2)cc1`, the inhibition was inactive: -3.94%.
In the case of `COC(=O)c1cc2c(s1)N=C(c1ccccc1)N(C)P2(=O)N1CCOCC1` (centres undefined), the inhibition is reported as inactive: -2.88%.
In the case of `CCC(=O)N1C2C3N(C(=O)CC)C1C1N(C(=O)CC)C(C(N1C(=O)CC)N3C(=O)CC)N2C(=O)CC`, the inhibition is reported as inactive: -0.47%.
With `O=C(OC1CN2CCC1CC2)c1ccccc1` (centres undefined) the inhibition was inactive: -4.57%.
`CN(C)C(=O)Oc1noc2ccccc12` was tested, and the inhibition was inactive: -3.38%.
`O=c1c2cc([N+](=O)[O-])ccc2[nH]c2c([N+](=O)[O-])cc([N+](=O)[O-])cc12` was tested, and the inhibition was inactive: -4.33%.
For `Cc1ccccc1OP(=O)(Nc1ccccn1)Oc1ccccc1C`, the inhibition was inactive: -0.863%.
`CC(NC(=O)COC(=O)C(O)(c1ccccc1)c1ccccc1)c1ccccc1` (centres undefined) was tested, and the inhibition was inactive: -1.09%.
For `CCOc1ccc(C2=NCC(CBr)S2)cc1` (centres undefined), the inhibition was inactive: 0.327%.
For `O=P1(Nc2nc3ccc(Cl)cc3s2)COc2ccccc2O1` (centres undefined), the inhibition was inactive: 0.232%.
For `CCc1cc(O)c([N+](=O)[O-])c(C)c1[N+](=O)[O-]`, the inhibition was inactive: -4.12%.
With `CC(C)(C)C(=O)NC(Sc1ccccc1)C(Cl)(Cl)Cl` (centres undefined) the inhibition was inactive: -4.7%.
With `COC(=O)C1(C)COP(=O)(NCc2ccccc2)OC1` (centres undefined) the inhibition was inactive: -3.52%.
In the case of `N#C/C(=C\c1ccc(N(CCBr)CCBr)cc1)C(N)=O`, the inhibition is reported as inactive: -2.66%.
For `CC(=O)c1ccc(N2CC2c2ccncc2)cc1` (centres undefined), the inhibition was inactive: -1.1%.
In the case of `C[C@@H]1C=CCP(=O)(Oc2ccccc2)O1` (some centres undefined), the inhibition is reported as inactive: 0.577%.
